Where a chain is given by its changes, count along the chain named. Names and notes keep the numbering of the source.
Test: Fluorescence emission spectra without and with saturating ligand (wavelength shift, ΔIstd, ΔRmax)
Conditions: for λmax,apo (nm) / λmax,sat (nm): emission maximum; for λmax,apo (nm): absence of ligand; for λmax,sat (nm): saturating ligand (ligand column); for ΔIstd: standard intensity change; for ΔIstd / ΔRmax: unbound vs ligand-saturated; for ΔRmax: standard ratiometric change
Procedure, shortened: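 Emission spectra of bPBP–fluorophore conjugates (50–1000 nM protein, 25 °C, stirred) recorded without and with saturating ligand, using fluorophore-specific excitation. Wavelength shift, ΔIstd (intensity change at the mid-point wavelength) and ΔRmax (maximal ratiometric change over enumerated band pairs, 2 nm steps, 10 nm width) derived.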

B1: dipeptide BP K394C Fluorescein (conjugate)
chain: MKTLVYCSEGSPEGFNPQLFTSGTTYDASSVPLYNRLVEFKIGTTEVIPGLAEKWEVSEDGKTYTFHLRKGVKWHDNKEFKPTRELNADDVVFSFDRQKNAQNPYHKVSGGSYEYFEGMGLPELISEVKKVDDNTVQFVLTRPEAPFLADLAMDFASILSKEYADAMMKAGTPEKLDLNPIGTGPFQLQQYQKDSRIRYKAFDGYWGTKPQIDTLVFSITPDASVRYAKLQKNECQVMPYPNPADIARMKQDKSINLMEMPGLNVGYLSYNVQKKPLDDVKVRQALTYAVNKDAIIKAVYQGAGVSAKNLIPPTMWGYNDDVQDYTYDPEKAKALLKEAGLEKGFSIDLWAMPVQRPYNPNARRMAEMIQADWAKVGVQAKIVTYEWGEYLKRACDGEHQTVMMGWTGDNGDPDNFFATLFSCAASEQGSNYSKWCYKPFEDLIQPARATDDHNKRVELYKQAQVVMHDQAPALIIAHSTVFEPVRKEVKGYVVDPLGKHHFENVSIE
modifications: left off: small tags and cut ends
λmax,apo (nm): 522 | λmax,sat (nm): 522 | ΔIstd: 0.30 | ΔRmax: 0.21

B2: dipeptide BP D450C Fluorescein (conjugate, UniProt P23847 29-535, looked up, variant D450C)
Dipeptide-binding protein: KTLVYCSEGSPEGFNPQLFTSGTTYDASSVPLYNRLVEFKIGTTEVIPGLAEKWEVSEDGKTYTFHLRKGVKWHDNKEFKPTRELNADDVVFSFDRQKNAQNPYHKVSGGSYEYFEGMGLPELISEVKKVDDNTVQFVLTRPEAPFLADLAMDFASILSKEYADAMMKAGTPEKLDLNPIGTGPFQLQQYQKDSRIRYKAFDGYWGTKPQIDTLVFSITPDASVRYAKLQKNECQVMPYPNPADIARMKQDKSINLMEMPGLNVGYLSYNVQKKPLDDVKVRQALTYAVNKDAIIKAVYQGAGVSAKNLIPPTMWGYNDDVQDYTYDPEKAKALLKEAGLEKGFSIDLWAMPVQRPYNPNARRMAEMIQADWAKVGVQAKIVTYEWGEYLKRAKDGEHQTVMMGWTGDNGDPDNFFATLFSCAASEQGSNYSKWCYKPFEDLIQPARATCDHNKRVELYKQAQVVMHDQAPALIIAHSTVFEPVRKEVKGYVVDPLGKHHFENVSIE
modifications: fluorescein label
λmax,apo (nm): 520 | λmax,sat (nm): 520 | ΔIstd: 0.10 | ΔRmax: 0.04

B3: dipeptide BP K394C JPW4039 (conjugate, UniProt P23847 29-535, looked up, variant K394C)
Dipeptide-binding protein: B2 Dipeptide-binding protein with K394C, C450D
modifications: JPW4039 dye conjugate
λmax,apo (nm): 592 | λmax,sat (nm): 598 | ΔIstd: 0.37 | ΔRmax: 1.34

B4: dipeptide BP D450C NBD (conjugate, UniProt P23847 29-535, looked up, variant D450C)
Dipeptide-binding protein: B2 Dipeptide-binding protein
modifications: NBD dye conjugate
λmax,apo (nm): 545 | λmax,sat (nm): 544 | ΔIstd: 0.02 | ΔRmax: 0.80

B5: dipeptide BP K394C JPW4045 (conjugate, UniProt P23847 29-535, looked up, variant K394C)
Dipeptide-binding protein: B2 Dipeptide-binding protein with K394C, C450D
modifications: JPW4045 dye conjugate
λmax,apo (nm): 631 | λmax,sat (nm): 640 | ΔIstd: 0.01 | ΔRmax: 1.07

B6: dipeptide BP K394C JPW4042 (conjugate, UniProt P23847 29-535, looked up, variant K394C)
Dipeptide-binding protein: B2 Dipeptide-binding protein with K394C, C450D
modifications: JPW4042 dye conjugate
λmax,apo (nm): 638 | λmax,sat (nm): 644 | ΔIstd: 0.06 | ΔRmax: 0.99

B7: dipeptide BP K394C Acrylodan (conjugate, UniProt P23847 29-535, looked up, variant K394C)
Dipeptide-binding protein: B2 Dipeptide-binding protein with K394C, C450D
modifications: acrylodan conjugate
λmax,apo (nm): 500 | λmax,sat (nm): 500 | ΔIstd: 0.23 | ΔRmax: 0.90

Reference: patent US9625458B2, “Biosensor” (priority 2002, dated 2017)
